According to paper PMC11267572, “A Repurposed Drug Interferes with Nucleic Acid to Inhibit the Dual Activities of Coronavirus Nsp13”:

Target: Nsp13 WT (SARS-CoV-2, UniProt P0DTD1 5325-5925)
Assay: fluorescence polarization; 100 nM probe; no ATP stated
Settings: protein: recombinant; label: 5' fluorescein on strand 1

B1: duplex-FL (dsDNA)
DNA 1: CCTCGTAGGTACGCATGGATCCTCT
DNA 2: GCTTGCATGCCTGCAGGTGCACTCTAGAGGATCCATGCGTACCTACGAGG
B1 showed a Kd of roughly 79 nM.
